Percent effect of library compounds

Data taken from ChEMBL document CHEMBL3988442, “University of Dundee, Small-Polar-MMV Screening Library” (2021).

Each number is a percent effect as filed.
The controls that fix the scale are not given in the record; negative values are as filed.
The entries come from a sample that favours strong results.
A dash means the value is not listed here; it may have been measured.

Mtb glucose medium: 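Growth of Mycobacterium tuberculosis over 3 days (7H9 medium with glucose and tyloxapol); the read-out is not stated. Tested at 500 µM. Higher reads as more growth inhibition (inferred: compounds with an IC50 in retests scored well above the rest). Size under these conditions: about 18,000 compounds, about 1,400 of them at 50% or above in at least one test.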
Mtb cholesterol medium: 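Phenotypic screen: M. tuberculosis growth, cholesterol and DPPC medium, 4 days; the read-out is not stated. Tested at 500 µM. The record gives no direction; compounds that gave an IC50 in retests scored well above the rest, so higher reads as more growth inhibition. Size under these conditions: about 18,000 compounds, about 900 of them at 50% or above in at least one test.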

| structure | Mtb glucose medium | Mtb cholesterol medium |
|---|---|---|
| `Cc1oc(C)c(C(=O)NCC(=O)N2CCCC2)c1C` | - | 73.81 |
| `CCOC(=O)Cn1nnc(-c2ccc(F)cc2)n1` | 16.69 | - |
| `O=C(CN1CSCC1=O)NCCC1=CCCCC1` | 21.45 | - |
| `CO[C@H]1CNCC1NC(=O)Cc1cccc(F)c1F` (stereo partly drawn) | -9.442 | - |
| `CC(CN)C(=O)Nc1cn[nH]c1` (stereo not drawn) | -1.24 | - |
| `Cc1cccc(C)c1CN(C)S(C)(=O)=O` | 14.98 | - |
| `CSc1cc(NC(=O)CCc2cncc(F)c2)ccn1` | - | 15.53 |
| `CCNC(=O)CN(CC)S(=O)(=O)c1ccc(C)cc1` | 59.12 | - |
| `CCS(=O)(=O)C(C)C(=O)NC(C)(C)C` (stereo not drawn) | - | -0.4604 |
| `Cc1cccc(NC(=O)[C@@H]2CCCN2)n1` | - | -25.06 |
| `CC(=O)Nc1ccc(C(=O)N(C)Cc2cccs2)cc1` | 82.8 | 96.25 |
| `Nc1ccc(C(=O)NCC2(Cn3cccn3)CC2)cn1` | - | 0.1383 |
| `NCC(O)c1ccc(Cl)c(Cl)c1` (stereo not drawn) | 76.48 | 55.78 |
| `COCCNC(=O)C(C)N(C)CC(C)C` (stereo not drawn) | -4.906 | - |
| `O=C(NCc1ccncc1)OCC(F)(F)F` | - | 33.86 |
| `CCc1nn(C)c(CC)c1S(=O)(=O)N1CCC(N)CC1` | 10.81 | - |
| `COc1ccc(C(N)c2ccncc2)cc1` (stereo not drawn) | 10.72 | 10.58 |
| `COCCC(=O)NC(c1ccc(F)cc1)C(F)(F)F` (stereo not drawn) | - | 20.09 |
| `CC(=O)c1cccc(NC(=O)c2cn(C)nc2C)c1` | 42.16 | - |
| `CCN(CC)CCS(=O)(=O)c1ccccc1` | 93.96 | 71.3 |
| `NC1(CO)CCCc2ccccc21` (stereo not drawn) | -0.6293 | - |
| `CCn1ccnc1C1CCN(C(=O)CCOC)CC1` | 10.85 | - |
| `O=C(Nc1cnc(O)nc1O)c1ccccc1Br` | 26.27 | - |
| `CC(Sc1ccccc1)C(=O)NCC(=O)N1CCCC1` (stereo not drawn) | 9.433 | - |
| `Cc1cc(NC(=O)C(C)S(=O)(=O)c2ccccn2)no1` (stereo not drawn) | - | -18.25 |
| `CC(Oc1cccc(Br)c1)C(=O)NN1CCOCC1` (stereo not drawn) | - | 5.949 |
| `Cc1ccc(F)cc1C(=O)N[C@@H]1CCNC[C@H]1O` | - | 4.954 |
| `CCOC(=O)c1cnn(-c2ccc(Br)cn2)c1N` | -4.694 | -18.43 |
| `NC(=O)CN1C(=O)CC2(CCCCC2)CC1=O` | -8.551 | - |
| `Cc1csc(NC(=O)CSCc2nnc(C)o2)n1` | - | -28.74 |
| `CCC1(CC)CN(C(=O)NCCC(C)C)CCS1(=O)=O` | 53.47 | 55.74 |
| `CC(=O)N1CCC(NC(=O)c2ccc(Br)o2)CC1` | 2.466 | - |
| `Cn1ncc(N[C@@H]2C=C[C@H](CO)C2)c(Cl)c1=O` | 7.391 | - |
| `CC(C(=O)N[C@@H](C)CO)c1ccsc1` (stereo partly drawn) | -2.397 | -0.7292 |
| `CNCc1c[nH]nc1C` | -0.9117 | - |
| `O=C1COCC(=O)N1CCc1ccc(Cl)cc1` | -5.919 | 7.678 |
| `Cc1noc(C(C)N2CCn3ccnc3C2)n1` (stereo not drawn) | 4.218 | - |
| `CCn1nnc(NC(=O)Cc2ccc(Cl)cc2)n1` | 40.17 | 37.12 |
| `COc1ccc(-c2nnn(CCO)n2)cc1OC` | 22.89 | 7.347 |
| `O=S(=O)(Cc1ccon1)N1CCCC(c2ncc[nH]2)C1` (stereo not drawn) | -3.416 | - |
| `CSc1cccc(N(C)C(=O)C(N)c2ccccc2)c1` (stereo not drawn) | 66.3 | 55.03 |
| `N#CC(CO)Cc1ccco1` (stereo not drawn) | - | 5.884 |
| `COc1cccc(N2CCNCC2C)c1` (stereo not drawn) | 79.3 | 5.558 |
| `Oc1cc(C(F)(F)F)ccn1` | -2.963 | - |
| `COC1CCN(CC(=O)Nc2ccc(C(N)=O)cc2)C1` (stereo not drawn) | 6.711 | - |
| `Cc1ocnc1CNC(=O)CN(C)C(=O)c1cccs1` | - | -1.468 |
| `CC(C)N1CCC(C(=O)N(C)Cc2nccn2C)CC1` | 8.743 | - |
| `CCN(Cc1nc(CSC)no1)[C@H]1COC[C@@H]1O` | 1.046 | - |
| `COCC(Nc1nc(C(C)C)ns1)C(N)=O` (stereo not drawn) | -5.468 | - |
| `CCN1CCC(NC(=O)c2ccccc2OC)CC1` | - | 14.2 |
| `CCOc1ccc(C(=O)CCN(C)C)cc1` | 105.1 | 114.8 |
| `O=C(NCCc1noc(C(F)(F)F)n1)c1ccnnc1` | - | 14.72 |
| `Nc1ccc(CC2CCNCC2)cn1` | - | -0.699 |
| `Cc1nonc1C(=O)Nc1cnc(N(C)C)nc1` | - | 11.58 |
| `CC(CN)S(N)(=O)=O` (stereo not drawn) | 3.418 | - |
| `CCCN1CCN(C(=O)c2c(C)nn(C)c2C)CC1` | - | 7.586 |
| `Oc1cccc(CNc2cccnc2-n2cccn2)c1` | 83.78 | 82.59 |
| `CN1CC[C@H]2CN(C(=O)CCOc3ccccc3)C[C@H]21` | 12.69 | - |
| `Cc1c(C(=O)N(CC2CCOC2)C2CC2)cnn1C` (stereo not drawn) | -11.38 | - |
| `c1ccc2[nH]c(NCC3CCCO3)nc2c1` (stereo not drawn) | - | 63.81 |
| `CC(C)(C)C(=O)Nc1nccs1` | 16.73 | - |
| `COc1cccc(NC(=O)NCCN(C)C(C)C)c1` | 9.391 | - |
| `Cn1cc(C2CCCN2)cn1` (stereo not drawn) | - | 3.947 |
| `NC1CC(=O)N(c2c(F)cccc2F)C1` (stereo not drawn) | - | 0.3249 |
| `Cc1ccc(CCC(C)NC(CO)CO)cc1` (stereo not drawn) | 39.46 | - |
| `O=C(NCC1(O)CCOCC1)Nc1cccc(F)c1` | 13.78 | - |
| `C[C@@H]1CN(CCCS(=O)(=O)N(C)C)C[C@@]1(O)C1CCC1` | - | 20.45 |
| `O=C(Cc1cccc(O)c1)NCCNc1ccccc1` | 40.46 | - |
| `Cc1nnc(SCCSC(C)(C)C)n1CC(N)=O` | 15.94 | - |
| `COc1c(Br)cccc1CN` | 34.64 | - |
| `Cc1nnnn1CC(=O)NCc1ccco1` | 0.5563 | 0.8983 |
| `COC(=O)CN1CCN(Cc2ccccc2)CC1` | 17.04 | - |
| `CSCC(CCO)NC(=O)c1cnn(C)c1C` (stereo not drawn) | 20.34 | 1.63 |
| `COC(=O)c1ccc(Cl)c(CN(C)CC(N)=O)c1` | 20.9 | - |
| `COc1cc(CNCc2ccccn2)ccc1O` | - | -14.58 |
| `O=C(CN1CCOCC1)NCCc1noc(C2CC2)n1` | -3.835 | -9.602 |
| `Cn1ccnc1CCNC(=O)C1(C)CCCO1` (stereo not drawn) | 8.541 | - |
| `CCCNC(=O)CC1Sc2ccccc2NC1=O` (stereo not drawn) | -11.06 | -14.68 |
| `Cc1ccc(F)c(C(=O)NCCc2n[nH]c(N)n2)c1Cl` | 11.1 | - |
| `CN1CCCN(C(=O)Nc2cccc(F)c2)CC1` | 5.999 | - |
| `COC(=O)[C@H](C)NC(=O)C1(c2ccccc2F)CC1` | 74.18 | 61.14 |
| `CCn1nc(C)c(CO)c1C` | -2.56 | - |
| `CCC(C)(C)NC(=O)c1scnc1C` | -10.74 | - |

7 of the entries, repeated:

- Cc1ccc(F)c(C(=O)NCCc2n[nH]c(N)n2)c1Cl : Mtb glucose medium: 11.1%
- COc1cccc(NC(=O)NCCN(C)C(C)C)c1 : Mtb glucose medium: 9.391%
- O=C(NCc1ccncc1)OCC(F)(F)F : Mtb cholesterol medium: 33.86%
- C[C@@H]1CN(CCCS(=O)(=O)N(C)C)C[C@@]1(O)C1CCC1 : Mtb cholesterol medium: 20.45%
- CCc1nn(C)c(CC)c1S(=O)(=O)N1CCC(N)CC1 : Mtb glucose medium: 10.81%
- COc1cccc(N2CCNCC2C)c1 (stereo not drawn) : Mtb glucose medium: 79.3%; Mtb cholesterol medium: 5.558%
- Cc1nnc(SCCSC(C)(C)C)n1CC(N)=O : Mtb glucose medium: 15.94%